# In PMC6952414 (Nature Communications, 2020):
# Tested on: trypsin
# Assay: Resistance to cleavage by trypsin
# Details: Supplementary Fig. 3
compound,measurement,value
CSCC[C@H](N)C(=O)N[C@@H](C)C(=O)N[C@@H](CCCNC(=N)N)C(=O)N[C@@H](CCCNC(=N)N)C(=O)N1CCC[C@H]1C(=O)N[C@H](C(=O)N[C@@H](CC(N)=O)C(=O)N[C@@H](Cc1c[nH]cn1)C(=O)N[C@@H](Cc1ccccc1)C(=O)N[C@@H](C)C(=O)NCCCCCC(=O)NCCCC[C@H](NC(=O)CCCCCNC(=O)[C@H](C)NC(=O)[C@H](Cc1ccccc1)NC(=O)[C@H](Cc1c[nH]cn1)NC(=O)[C@H](CC(N)=O)NC(=O)[C@@H](NC(=O)[C@@H]1CCCN1C(=O)[C@H](CCCNC(=N)N)NC(=O)[C@H](CCCNC(=N)N)NC(=O)[C@H](C)NC(=O)[C@@H](N)CCSC)C(C)C)C(=O)NCCCC[C@H](NC(=O)[C@H](CCCCNC(=O)CCCCCNC(=O)[C@H](C)NC(=O)[C@H](Cc1ccccc1)NC(=O)[C@H](Cc1c[nH]cn1)NC(=O)[C@H](CC(N)=O)NC(=O)[C@@H](NC(=O)[C@@H]1CCCN1C(=O)[C@H](CCCNC(=N)N)NC(=O)[C@H](CCCNC(=N)N)NC(=O)[C@H](C)NC(=O)[C@@H](N)CCSC)C(C)C)NC(=O)CCCCCNC(=O)[C@H](C)NC(=O)[C@H](Cc1ccccc1)NC(=O)[C@H](Cc1c[nH]cn1)NC(=O)[C@H](CC(N)=O)NC(=O)[C@@H](NC(=O)[C@@H]1CCCN1C(=O)[C@H](CCCNC(=N)N)NC(=O)[C@H](CCCNC(=N)N)NC(=O)[C@H](C)NC(=O)[C@@H](N)CCSC)C(C)C)C(N)=O)C(C)C [PVF-tet],resistance to trypsin (in words),easily cleaved by trypsin
